Reference: patent US20140010824A1 (priority 2012, published 2014)
Values after ≈ are worked out from the molar mass of the structure shown.

Tested on: Yptb(P^−) ΔmrtAB pmrtA^+B*- flag
Settings: Yptb(P^−) ΔmrtAB pmrtA^+B*- flag (point mutation in Walker A box of MrtB ATPase domain); overnight culture without shaking, 37° C.; average of six replicates

## Cn1c2cccc(=O)c-2nc2ccccc21 [pyocyanin]
  minimum inhibitory concentration (MIC): 2 µg/mL (≈ 9.51 µM)
